A mixed list of measured activities; the numbers were collected in NIAID ChemDB.

Common to all: cytotoxicity tests; cells: CEM; read-out: CC50

Neighbouring rows are from separate reports. Blank or dashed fields: not listed here. CCn: concentration that lowers growth or viability of the cells by n%.

| structure | read by | result |
|---|---|---|
| Cc1ccc[n+]([O-])c1SCc1c(Cl)cccc1Cl | cell count | 31 µg/mL |
| C=CCNC(=O)NC1=CSC2=NC(=O)C3(NN12)c1ccccc1-c1ccccc13 | - | 50 µM |
| O=C(c1ccccc1)c1ccc2c(c1)oc(=O)n2CCN1CCOCC1 | - | 22 µg/mL |
| O=S(=O)(Cc1cccc(Br)c1)c1cccc[n+]1[O-] | cell count | 7.4 µg/mL |
| CCc1c(Cc2cccc3ccccc23)n(COC)c(=O)[nH]c1=O | - | 106 µM |
| NC1=NNC2(C(N)=N1)c1ccccc1-c1ccccc12 | - | 81 µM |
| O=C(N[C@@H](Cc1ccccc1)C(=O)O)c1ccccc1SSc1ccccc1C(=O)N[C@@H](Cc1ccccc1)C(=O)O | - | >100 µM |
| CC(C)c1ccc(C(C)C)c(CS(=O)c2cccc[n+]2[O-])c1 | cell count | 11 µg/mL |
| O=C(O)[C@@H]1CCCCN1C(=O)c1ccccc1SSc1ccccc1C(=O)N1CCCC[C@H]1C(=O)O | - | >100 µM |
| O=S(=O)(c1ccc(Cl)c[n+]1[O-])C(Cl)c1ccccc1 | cell count | 2.3 µg/mL |
| CCCc1c(Cc2cccc3ccccc23)n(COCCO)c(=O)[nH]c1=O | - | 108 µM |
| Cc1ccc(C)c(CS(=O)(=O)c2cccc[n+]2[O-])c1C | cell count | 11 µg/mL |
| Cn1c(=O)sc2cc(C(=O)c3ccc(Cl)c([N+](=O)[O-])c3)ccc21 | - | 11 µg/mL |
| COc1ccc(CS(=O)(=O)c2cc(C(C)(C)C)cc[n+]2[O-])cc1 | cell count | 38 µg/mL |
| O=C1N=C2SC=C(NC(=S)Nc3ccccc3)N2NC12c1ccccc1-c1ccccc12 | - | 95 µM |
| O=[N+]([O-])c1ccc(SCc2ccccc2)nc1 | cell count | 46 µg/mL |
| Cn1c(=O)sc2cc(C(=O)c3ccc(Cl)c(Cl)c3)ccc21 | - | 8.5 µg/mL |
| CC(C)(C)C[C@H](NC(=O)c1ccccc1SSc1ccccc1C(=O)N[C@@H](CC(C)(C)C)C(=O)O)C(=O)O | - | 92 µM |
| Cc1c(Cc2cccc3ccccc23)n(COCc2ccccc2)c(=O)[nH]c1=O | - | 41.7 µM |
| Cc1ccc(C)c(C(Br)S(=O)(=O)c2cccc[n+]2[O-])c1 | cell count | 81 µg/mL |
| O=C(CSC1=NNC2(C(=O)N1)c1ccccc1-c1ccccc12)NC(=S)Nc1ccccc1 | - | 35 µM |
| O=C(c1cccc(F)c1)c1ccc2[nH]c(=O)oc2c1 | - | 9.6 µg/mL |
| CC(C)C[C@@H](CCC(=O)O)NC(=O)c1ccccc1SSc1ccccc1C(=O)N[C@H](CCC(=O)O)CC(C)C | - | >100 µM |
| S=C1N=C(Cl)C2(NN1)c1ccccc1-c1ccccc12 | - | >200 µM |
| COc1ccc(CS(=O)(=O)c2cccc[n+]2[O-])cc1OC | cell count | 41 µg/mL |
| O=C(c1ccc([N+](=O)[O-])cc1)c1ccc2[nH]c(=O)oc2c1 | - | 15 µg/mL |
| CCOCn1c(Cc2cccc3ccccc23)c(C)c(=O)[nH]c1=O | - | 50.3 µM |
| COC(=O)CC[C@H](CC#N)NC(=O)c1ccccc1SSc1ccccc1C(=O)N[C@@H](CC#N)CCC(=O)OC | - | 69 µM |

For reference, 3 entries again:

structure,read by,result
COC(=O)CC[C@H](CC#N)NC(=O)c1ccccc1SSc1ccccc1C(=O)N[C@@H](CC#N)CCC(=O)OC,-,69 µM
CCc1c(Cc2cccc3ccccc23)n(COC)c(=O)[nH]c1=O,-,106 µM
Cn1c(=O)sc2cc(C(=O)c3ccc(Cl)c(Cl)c3)ccc21,-,8.5 µg/mL